{"source": "patent US9878058B2", "about": "“SHK-based pharmaceutical compositions and methods of manufacturing and using the same” (Kineta One, LLC, priority 2011, dated 2018)", "key": {"[1]": {"experiment": "Surfactant screening under agitation (visual, SEC-HPLC)", "format": "physicochemical", "method": "In order to identify surfactant(s) for possible inclusion in the pharmaceutical compositions, the polypeptide is formulated in buffer, to which test surfactants are added individually, and compared with samples having no surfactant. Surfactants tested include polysorbate 20, polysorbate 80, and pluronic F68 at concentrations beginning with 0.01%.\nTo determine the effect of the surfactant, test samples and controls are subjected to agitation or no agitation. Test samples and controls are then analyzed by size-exclusion-HPLC (SEC-HPLC or SE-HPLC) to monitor changes in characteristics, including soluble aggregation and loss of monomer recovery.\nUsing this method, ShK-186 polypeptide preparations were subject to constant agitation for up to four hours at pH 5.8, in the presence of polysorbate 20 (0.01%), polysorbate 80 (0.01%), or pluronic F68 (0.10%) (Sigma-Aldrich)."}, "[2]": {"experiment": "Long-term (up to 12 month) stability of ShK-186 in P6N formulation", "format": "physicochemical", "method": "The short-term stability of ShK-186 formulated in P6N is studied in three sets of conditions designed to replicate clinical use: 72-hour storage at variable temperatures, and 24-hour storage in sterile plastic syringes. Long-term stability is tested over 1, 3, 6 and 12 months of storage at refrigerated (such as 5° C.) and freezing (such as −70° C., −20° C.) temperatures.\nFor short-term studies, ShK-186 is diluted to a final concentration of 1 mg/ml using either 5% (w/v) dextrose or 0.9% (w/v) saline, or WFI solutions. A short-term stability study spans 72 hours of storage at refrigerated (such as 5° C.) and elevated (such as 40° C.) temperatures in each diluent. ShK-186 diluted in WFI, without preservatives, serves as a control. For long-term studies, ShK-186 is formulated in P6N at either 25 or 50 mg/ml, then aliquots are used to prepare samples having a final concentration as indicated, in mg/ml.\nThe stability of ShK-186 at three concentrations, 10, 25, and 50 mg/ml, under refrigerated and frozen storage temperatures is determined. Lyophilized ShK-186 is dissolved in P6N formulation to achieve these final concentrations of ShK-186. Each formulated solution is sterilized with 0.2 μm filters, and transferred into suitable sterile vials, such as type I borosilicate glass 3 cc vials at a fill volume of 0.5 ml per vial, under sterile conditions. The vials are stored at 5° C., −20° C., and −70° C. for testing at time points of zero, three and six months.\nSkH-186 was formulated at 10 mg/ml and 25 mg/ml in 10 mM Sodium Phosphate, pH 6.0, containing 0.8% NaCl and 0.05% Polysorbate 20, and incubated for 12 months at 5° C., −20° C., and −70° C. […] Based on SE-HPLC results, the overall percentage of monomer for both formulations at the end of the study was about 98%."}}}
{"compound": "CC[C@H](C)[C@@H]1NC(=O)[C@@H](NC(=O)[C@H](CO)NC(=O)[C@H](CCCNC(=N)N)NC(=O)COCCOCCNC(=O)[C@@H](N)Cc2ccc(OP(=O)(O)O)cc2)CSSC[C@@H](C(N)=O)NC(=O)[C@H]([C@@H](C)O)NC(=O)CNC(=O)[C@@H]2CSSC[C@@H]3NC(=O)[C@H](CCC(N)=O)NC(=O)[C@H](Cc4ccccc4)NC(=O)[C@H](C)NC(=O)[C@H]([C@@H](C)O)NC(=O)[C@H](CSSC[C@H](NC(=O)[C@H](Cc4ccccc4)NC(=O)[C@H](CO)NC(=O)[C@H](CC(C)C)NC(=O)[C@H](CCCNC(=N)N)NC(=O)[C@H](Cc4ccc(O)cc4)NC(=O)[C@H](CCCCN)NC(=O)[C@H](CCSC)NC(=O)[C@H](CO)NC(=O)[C@H](Cc4c[nH]cn4)NC(=O)[C@H](CCCCN)NC3=O)C(=O)N[C@@H](CCCNC(=N)N)C(=O)N[C@@H](CCCCN)C(=O)N[C@@H]([C@@H](C)O)C(=O)N2)NC(=O)[C@H](CCCNC(=N)N)NC(=O)[C@H](CO)NC(=O)[C@H](CCCCN)NC(=O)[C@@H]2CCCN2C(=O)[C@H]([C@@H](C)CC)NC(=O)[C@H]([C@@H](C)O)NC(=O)[C@H](CC(=O)O)NC1=O", "note": "[ShK-186]", "values": [{"measurement": "Soluble aggregation by SEC-HPLC", "setting": "[1]; polysorbate 20 at 0.05%, pH lowered from 5.8 to 5.1", "result": "absence of soluble aggregation"}, {"measurement": "Appearance after constant agitation", "setting": "[1]; up to four hours, pH 5.8, polysorbate 20 (0.01%), polysorbate 80 (0.01%), pluronic F68 (0.10%) or no surfactant", "result": "haziness with increased turbidity"}, {"measurement": "% HMV by SE-HPLC", "setting": "[2]; 12 months, 5° C.", "result": 1.19, "unit": "%"}, {"measurement": "Percentage of LMW species by SE-HPLC", "setting": "[2]; 12 months, all temperatures", "result": "remained relatively unchanged"}, {"measurement": "% HMV by SE-HPLC", "setting": "[2]; 12 months, frozen samples", "result": 0.95, "unit": "%"}, {"measurement": "Overall percentage of monomer by SE-HPLC", "setting": "[2]; end of 12 month study, both formulations", "result": "about 98%"}]}
